Compound potency records, mixed from different reports. Data source: NIAID ChemDB in PubChem.

All rows: whole-cell or culture tests; organism: Candida albicans; measure: MBC

Blank or dashed fields: not listed here. Neighbouring rows are from separate reports.

| compound | strain | result |
|---|---|---|
| CCCCCCCCCCOC[n+]1cccc(NCn2nnc3ccccc32)c1 | ATCC 10231 | 290 µM |
| C[N+](C)(COCCCC1CCCCC1)Cc1cc(N=Nc2ccc(Cl)cc2)ccc1O | - | 260 µM |
| COc1cc(C2CC(c3ccc4c(c3)OCO4)=NN2c2ccccc2)cc(OC)c1OC | DSM 70014 | 50 µg/mL |
| CCCCCCCCCCOC[n+]1cccc(NCNc2ccc[n+](COCCCCCCCCCC)c2)c1 | ATCC 10231 | 13 µM |
| CCCCCCCCCCCC[N+](C)(C)COCCC | ATCC 10231 | 155 µM |
| CCCCCOC[N+](C)(C)Cc1cc(N=Nc2ccc(Cl)cc2)ccc1O | - | 1750 µM |
| CCCCCCCCCCCCSC[N+](C)(C)CCCCCCCCCCCC | ATCC 10231 | 1080 µM |
| CCCCCCCCCOC[n+]1cccc(NCNc2ccc[n+](COCCCCCCCCC)c2)c1 | ATCC 10231 | 27 µM |
| CCCCCCCCCCCC[N+](C)(C)CSCCCC | ATCC 10231 | 1420 µM |
| CCCCCCOC[N+](C)(C)Cc1cc(N=Nc2ccc(C)cc2)ccc1O | - | 38 µM |
| CCCCCCCCCCCC[N+](C)(C)COC(CCC)CCC | ATCC 10231 | 26.4 µM |
| C[N+](C)(COCCC1CCCCC1)Cc1cc(N=Nc2ccc(Cl)cc2)ccc1O | - | 66 µM |
| CCCCCCCCCCCOC[n+]1cccc(NCNc2ccc[n+](COCCCCCCCCCCC)c2)c1 | ATCC 10231 | 195 µM |
| CCCCCCCCCCCC[N+](C)(C)COCCCCCCCCC | ATCC 10231 | 62 µM |
| C[N+](C)(COC1CCCCCC1)Cc1cc(N=Nc2ccc(Cl)cc2)ccc1O | - | 256 µM |

Repeating the first 2 entries:

compound,strain,result
CCCCCCCCCCOC[n+]1cccc(NCn2nnc3ccccc32)c1,ATCC 10231,290 µM
C[N+](C)(COCCCC1CCCCC1)Cc1cc(N=Nc2ccc(Cl)cc2)ccc1O,-,260 µM